The results in this text go back to patent US20260069679A1.

This assay deals with Original MERS SS ΔG3Loop NPs. As to the kind of experiment: BLI sensorgrams, six concentrations (not given). On the technique in general: Biolayer interferometry detects binding as a change in optical thickness at a sensor tip.

For G4 (antibody), the dissociation constant (Kd) (as a rule, the equilibrium constant for the complex coming apart) is 3 pM.
